Measured values as given in patent US20120225837A1, “MEDICINAL AGENT FOR DISEASE ASSOCIATED WITH EPSTEIN-BARR VIRUS, AND METHOD FOR SCREENING OF THE MEDICINAL AGENT” (Kyoto University, priority 2007, published 2012).
Read-outs that look alike come from different tables or passages of the source.

Test system: 143B/EB virus-TK cells
Conditions: ratio of CC50 in 143B/hu-TK to CC50 in 143B/EB virus-TK
Source text: At first, a primer was designed on the basis of the data base information of NCBI, followed by extracting DNA from B95a cells (J. Virol. 1990; 64(2): 700-5), and the TK gene of an EB virus was amplified by PCR method and cloned in the multicloning site of an expression plasmid vector pCI-neo (pCI-EB-TKneo). Similarly, human-TK gene was also amplified by PCR method and cloned (pCI-huTKneo). Whether the cloned gene fragment was a desired gene or not was judged by determining the base sequence.
Then, TK-defect human osteosarcoma cells (143B) was transfected by lipofection method (Proc. Natl. Acad. Sci. USA 1987 November; 84(21): 7413-7) with the plasmid vector capable of expressing EB virus-TK gene or the plasmid vector capable of expressing human-TK gene, namely, pCI-EB-TKneo or pCI-huTKneo, and cells having each plasmid introduced therein were selected by the use of neomycin.
The drug sensitivity of 143B/EB virus-TK, 143B/hu-TK, 143B TK(−) cells and EB virus persistent infection cells was determined on the basis of the cytotoxicity of each drug. That is, cells (143B/EB virus-TK, 143B/hu-TK and 143B TK(−) cells: 5×10^4 cells/100 μl; EB virus persistent infection cells: 20×10^4 cells/100 μl) were added to 96-well flat-bottom culture plates containing 100 μl of various concentrations of each drug. After 5 days of culture, the number of surviving cells was determined by MTT [3-(4,5-dimethylthiazol-2-yl)-2,5-diphenyltetrazolium bromide] assay. The cytotoxicity of the test drugs is expressed in terms of a concentration (CC50) at which the cell viability was decreased to 50%.

| SMILES | SI (selection index) | SI (selection index) (listed as medicinal agent of the present invention) |
| --- | --- | --- |
| O=c1[nH]c(=O)n([C@H]2C[C@H](O)[C@@H](CO)O2)cc1F [5FdU, 5-fluoro-2′-deoxyuridine] | 0.7 | – |
| O=c1[nH]c(=O)n([C@H]2C[C@H](O)[C@@H](CO)O2)cc1C=CBr [BVDU, 5-bromovinyl-2′-deoxyuridine] | >2.5 | – |
| Cc1cn([C@@H]2S[C@H](CO)[C@@H](O)[C@@H]2F)c(=O)[nH]c1=O [Medicinal agent of the invention, 1-(2-deoxy-2-fluoro-4-thio-β-D-arabinofuranosyl)-5-methyluracil] | >2700 | more than 2700 |
